PubChem BioAssay AID624099, ICCB-Longwood – 2012
The deposit covers about 21,000 reagents; below is a random part of them. In the full data, 497 (2.4%) got an active call. 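Higher z means weaker E2 silencing; only reporter increases were scored, and knock-downs that hurt cell survival may mask genuine repressor factors.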 No sequences are given here.

- Screen: 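Human genes that papillomavirus E2 requires to repress the HPV18 LCR promoter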 (primary screen)
- Cells: human C33A cervical carcinoma cells (HPV-negative) stably expressing BPV1 E2 and an HPV18 LCR luciferase reporter
- Knock-down reagent: siRNA pool against human genes, 40 nM
- Duration: 72 h
- Detection: 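Per-well luciferase luminescence, z-scored on each plate against the plate mean and SD with control wells left out, then averaged across three replicate plates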
- Reading the numbers: mean z-score and z-score: higher = stronger reporter signal, weaker E2 silencing
- Hit rule: 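Hit if mean z-score reaches 2 and two or more of three replicate z-scores also reach 2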

| target gene | PubChem SID | mean z-score | z-score, replicate A | z-score, replicate B | z-score, replicate C | activity call |
| --- | --- | --- | --- | --- | --- | --- |
| COQ3 (coenzyme Q3, methyltransferase) | SID134314779 | 1.63 | 1.79 | 1.73 | 1.37 | inactive |
| FSAF1 (40S small subunit processome assembly factor 1) | SID134320080 | -1.81 | -1.54 | -2.08 | -1.8 | inactive |
| SGF29 (SAGA complex associated factor 29) | SID134310203 | 0 | -0.07 | -0.04 | 0.12 | inactive |
| ZNF415 (zinc finger protein 415) | SID134312143 | -1.5 | -1.52 | -1.47 | -1.51 | inactive |
| CD200R1 (CD200 receptor 1) | SID134321188 | 0.54 | 0.52 | 0.19 | 0.91 | inactive |
| REXO1 (RNA exonuclease 1 homolog) | SID134325025 | -0.32 | -0.4 | -0.38 | -0.18 | inactive |
| H3C7 (H3 clustered histone 7) | SID134317362 | 0.76 | 0.81 | 0.76 | 0.72 | inactive |
| SMR3B (submaxillary gland androgen regulated protein 3B) | SID134323806 | -0.29 | -0.28 | -0.07 | -0.51 | inactive |
| HECA (HECA ribonucleoprotein granule regulator) | SID134324762 | 0.63 | 0.64 | 0.69 | 0.56 | inactive |

Not a retest: an excerpt of the list.
| target gene | PubChem SID | mean z-score | z-score, replicate A | z-score, replicate B | z-score, replicate C | activity call |
| --- | --- | --- | --- | --- | --- | --- |
| SMR3B (submaxillary gland androgen regulated protein 3B) | SID134323806 | -0.29 | -0.28 | -0.07 | -0.51 | inactive |
| HECA (HECA ribonucleoprotein granule regulator) | SID134324762 | 0.63 | 0.64 | 0.69 | 0.56 | inactive |

Further reagents follow:
| target gene | PubChem SID | mean z-score | z-score, replicate A | z-score, replicate B | z-score, replicate C | activity call |
| --- | --- | --- | --- | --- | --- | --- |
| PTTG1 | SID134310385 | 0.37 | 0.16 | 0.16 | 0.79 | inactive |
| OR2A1 (olfactory receptor family 2 subfamily A member 1) | SID134329905 | -0.86 | -1.04 | -0.72 | -0.81 | inactive |
| SLC4A4 | SID134312630 | -0.18 | -0.37 | -0.14 | -0.03 | inactive |
| GAGE1 (G antigen 1) | SID134315623 | 0.04 | 0.33 | -0.19 | -0.03 | inactive |
| EBF3 (EBF transcription factor 3) | SID134326563 | -1.16 | -1.02 | -1.36 | -1.09 | inactive |
| CDYL2 (chromodomain Y like 2) | SID134313612 | 1.02 | 1.29 | 0.95 | 0.81 | inactive |
| TMEM168 (transmembrane protein 168) | SID134320254 | -0.74 | -0.78 | -0.81 | -0.64 | inactive |
| TEKTL1 (tektin like 1) | SID134322286 | -0.9 | -1.33 | -1.25 | -0.1 | inactive |
| LINC02694 (long independently transcribed non-coding RNA 2694) | SID134329599 | 1.6 | 1.55 | 1.61 | 1.63 | inactive |
| SLC6A14 | SID134312647 | 0.55 | 0.7 | 0.69 | 0.27 | inactive |
| LRRC75A (leucine rich repeat containing 75A) | SID134329543 | -0.28 | -0.47 | 0.09 | -0.45 | inactive |
| FBXO44 (F-box protein 44) | SID134323008 | 2.26 | 2.58 | 2.26 | 1.94 | active |
| ZNF257 (zinc finger protein 257) | SID134319165 | 0.91 | 1.28 | 0.87 | 0.59 | inactive |
| CALR3 (calreticulin 3) | SID134320230 | 1.64 | 1.72 | 1.76 | 1.43 | inactive |
